Test results: the supplement of paper PMC9931576
Human monoclonal antibodies against the spike receptor-binding domain (heavy:light variable regions). IC50 against pseudoviruses bearing the spike of naturally observed variants; lower = stronger; >10 µg/ml means not reached at the top dose. No active / inactive call. The stated detection limit is 0.0005 µg/ml; values near or below 0.001 µg/ml lie at the floor of the assay.

B1: BD56-1808 (protein)
chain 1: QVQLVQSGAEVKKPGSSVKVSCKASGGTFSSYTFTWVRQAPGQGLEWMGSVIPILNIPNYAQNFQGRVTITADKSTSTAYMELSSLRSEDTAFYYCALARGYSGTGSSYCFDYWGRGTLLTVSS
chain 2: HSVLTQPPSVSGAPGQRVTISCTGTNSNIGAGYDVHWYQQLPGTAPKLLIYINNNRPSGVPDRFSGAKSGTSASLAITGLQAEDEADYYCQSYDSSLSGSVFGGGTKLTVL
B2: BD56-1810 (protein)
chain 1: QVQLVESGGGVVQPGRSLKLSCAASGFTFNNFGMHWVRQAPGKGLQWVAVISSDGSYKGYEDSVKGRFTLSRDNSKNMVYLLMNSLRDEDTAVYYCAKEEGEMTTHFDYWGQGTLVTVSS
chain 2: DIQVTQSPTSLSASVGDRVTITCRASQSISRHLNWYQQRPGKAPRLLIYAASSLQSGVPSRFSGSGSGTDFTLTISSLQPEDFATYYCQQNYETPPWTFGQGTRVEIK
B3: BD56-1815 (protein)
chain 1: EMQLVQSGPEVKKPGTSVKVSCKASGFTFDISAVQWVRQARGQRLEWIGWIAPGGGETDYARMFQERVSITRDMSTSTAYMELSSLRSEDTAVYFCAAPHCNRTSCYDGFDIWGQGTVVTVSS
chain 2: EIVLTQSPGTLSLSPGERATLSCRASQSVRSSHLAWYQQKPGQAPRLLIYGASSRATGIPDRFSGSGSGTDFTLTISRLEPEDFAVYYCQQYGNSLWTFGQGTKVEIK
B4: BD56-1824 (protein)
chain 1: EVQLVESGGGLVQPGRSLRLSCAASGFVFDDYAIHWVRQAPGKGLEWVSGVTWNSGTIGYADSVKGRFIISRDNAKNTLYLQMNRLRAEDTALYYCAKDQSGDGERAFDYWGQGTLVTVSS
chain 2: SYVLTQPPSVSVAPGQTARMTCGGNNIGSKSVHWYQQKPGQAPVLVVYDDSDRPSGIPERFSGSNSGNTATLTISRVEAGDEADYYCQVWNSDTDHVVFGGGTKLTVL
B5: BD56-1825 (protein)
chain 1: QVTLRESGPALVKPTQTLTLTCTFSGFSLSTRGMCVAWIRQPPGKALEWLARIDWDDDRYYRTSLKTRLTVSKDTSKNQVVLTMTNMDPADTATYYCARTRVAYGDFGEFDPWGQGTLVTVSS
chain 2: DIQMTQSPSSLSASVGDRVTITCRPSENITTYLNWYQQKPGKAPKLLIYAASSLQNGVPSRFSGSGSATDFTLTISSLQPDDFATYYCQQSYSTPQTFGQGTKVETK
B6: BD56-1826 (protein)
chain 1: ELHLVESGGGLVQPGRSLRLSCGASGFSFDDYGMHWVRQPPGKGLEWVSGITWNSGVIGYADSVKGRFIISRDNAKNSLYLQMRNLRTEDTALYFCAKDTRRSSDYRLDEQYFFDYWGQGTLVTVSS
chain 2: SYVLTQPPSVSVAPGETARITCGGYNIGSKSVHWYQQRPGQAPVLVIYYDSDRPSGIPERFSGSNSANTATLTISRVEAGDEADYYCQVWDSNSDQVAFGGGTKLTVL
B7: BD56-1827 (protein)
chain 1: QVQLVESGGGVVQPGRSLRLSCAVSGFTFSNYGMHWVRQAPGKGLEWVAVTWYEGNKNYYVDSVKGRFTISRDTSKNTLLLQMNSLRVEDTAVYYCARDRLEFWYGDYSYGMDVWGQGTTVTVSS
chain 2: QSVLTQPASVSAAPGQKVTISCSGSSSNVGSNYVSWYQHLPGTAPNLLIYDNNQRPSGIPDRFSGSKSGTSAILGITGLQTGDEADYYCGTWDSSLSSVVFGGGTKLTVL
B8: BD56-1828 (protein)
chain 1: EVQLVESGGGLVQPGRSLRLSCAGYRFNSENYAMHWVRQAPGKGLEWVSGISWNSGTIGYADSVKGRFIISRDNAKNSLYLHMSSLRVEDTALYYCVKDISMGEGYNFAFDIWGQGTMVTVSS
chain 2: QSVLTQPPSISGAPGRRVTISCTGSSSNIGAGYDVHWYQHLPGTVPRLLIYGNNNRPSGVPDRFSGSRSGTSASLAITGLQAEDEADYYCQSYDSSLGGFVVFGGGTKLTVL
B9: BD56-1833 (protein)
chain 1: QVQLVQSGAEVKKPGSSVKVSCKASGGTFSSYAVSWVRQAPGQGLEWMAGIIPVFGTTYNARKFQGRVTLNADESTSTVYMDLSYLRSDDTAVYYCATHSSGPAASYSYNYYMDVWGKGTTVTVSS
chain 2: QSALTQPASVSGSPGQSITISCTGTSSDVGSYNLVSWYQQHPGKAPKLLIYDVNERPSGVSNRFSGSKSGNTASLTISGLRTEDEAYYYCCSSAGTSTWVFGGGSKLTVL
B10: BD56-1835 (protein)
chain 1: EVQLVESGGGLVQPGGSLRLSCAASGFTFSRYYMNWVRQAPGKGLEWVANIKEDGSEKYYVDSVKGRFTISRDNAKNSLFLQMNSLRGEDTAVYYCAGQFWLRGRFDPWGQGTLVTVSS
chain 2: NFMLTQPHSVSGSPGKTVTISCTGSSGSIASNYVQWYQQRPGSAPTTVIFEDNQRPSGVPDRFSGSIDSSSNSASLTISGLKTEDEADYYCQSYDSTNQVFGGGTKLTVL
B11: BD56-1837 (protein)
chain 1: EVQLVESGGGLVQPGRSLRLSCAASGFTFDDYAVHWVRQAPGKGLEWVSGISWNGGIIGYADSVQGRFTISRDNAKKSLYLQMNSLRAEDTALYYCAKAHDYGDYGSEGGFDYWGQGTLVTVSS
chain 2: QSALTQPASVSGSPRQSITISCTGTSSDVGGYNYVSWYQHHPGKAPKLVIYDVNKRPSGISNRFSGSKSGNTASLAISGLQAEDEADYYCSSYTSSSTLVFGGGTKLTVL
B12: BD56-1848 (protein)
chain 1: QVQVVESGGGVVQPGRSLRLSCAASGFTFSSYALHWVRQAPGKGLEWVAFISFNGRNKYYADSVQGRFTISRDNSRTTLYLQMNSLRAEDTAVYYCARPPWGVDSGSYSEAEMYFDSWGQGTLVTVSS
chain 2: QSVLTQPPSVSGAPGQRVTISCTGSSSNIGAGYDVHWYQQLPGTAPKLLIYGNTNRPSGVPDRFSGSKSGTSASLAITGLLAEDEADYYCQSYDSSLSGPNWVFGGGTKLTVL

Target: SARS-CoV-2 Omicron BA.1 spike pseudovirus
Test: pseudovirus neutralization IC50; higher = weaker neutralization
Method: (§1)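 Single-round VSV luciferase pseudovirus mixed with antibody dilutions for 1 h and put on Huh-7 cells for about a day; IC50 from the dose curve.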

Binder	pseudovirus neutralization IC50 [µg/mL]
B1	> 10
B2	> 10
B3	0.00148
B4	0.0182
B5	0.634
B6	0.0349
B7	0.218
B8	0.0459
B9	0.00466
B10	0.0993
B11	0.0451
B12	0.231

Target: SARS-CoV-2 Omicron BA.2 spike pseudovirus
Test: as above
Method: as §1

Binder	pseudovirus neutralization IC50 [µg/mL]
B1	> 10
B2	> 10
B3	0.00131
B4	0.0242
B5	0.00137
B6	0.0147
B7	0.0332
B8	0.0842
B9	0.0062
B10	> 10
B11	0.0617
B12	5.31

Target: SARS-CoV-2 Omicron BA.2.75 spike pseudovirus
Test: as above
Method: as §1

Binder	pseudovirus neutralization IC50 [µg/mL]
B1	0.992
B2	> 10
B3	0.00147
B4	0.0108
B5	1.71
B6	0.0235
B7	0.0536
B8	0.0699
B9	0.00176
B10	> 10
B11	0.0705
B12	> 10

Target: SARS-CoV-2 Omicron BA.5 spike pseudovirus
Test: as above
Method: as §1

Binder	pseudovirus neutralization IC50 [µg/mL]
B1	> 10
B2	> 10
B3	0.0214
B4	> 10
B5	0.000563
B6	0.198
B7	> 10
B8	1.85
B9	> 10
B10	> 10
B11	> 10
B12	3.91

Target: SARS-CoV-2 Omicron BQ.1.1 spike pseudovirus
Test: as above
Method: as §1

Binder	pseudovirus neutralization IC50 [µg/mL]
B1	> 10
B2	> 10
B3	0.144
B4	> 10
B5	> 10
B6	> 10
B7	> 10
B8	> 10
B9	> 10
B10	> 10
B11	> 10
B12	> 10

Target: SARS-CoV-2 Omicron XBB spike pseudovirus
Test: as above
Method: as §1

Binder	pseudovirus neutralization IC50 [µg/mL]
B1	> 10
B2	> 10
B3	> 10
B4	> 10
B5	> 10
B6	> 10
B7	> 10
B8	> 10
B9	> 10
B10	> 10
B11	> 10
B12	> 10

Target: SARS-CoV-2 early D614G spike pseudovirus
Test: as above
Method: as §1

Binder	pseudovirus neutralization IC50 [µg/mL]
B1	0.652
B2	0.472
B3	0.00217
B4	0.00421
B5	0.0353
B6	0.00479
B7	0.0361
B8	0.502
B9	0.0513
B10	0.0462
B11	> 10
B12	0.163
